Results on two molecules are retold here after publication PMC6946549 (Biochemistry, 2019).

The target in data set [1] is ChsH2 (chain beta of the ChsH1-ChsH2-Ltp2 complex) (Mycobacterium tuberculosis H37Rv). The data set can be described thus: SAXS.
The data set “AUC” deals with the molecule itself. The data set is described as follows: AUC.

B1: ChsH1 (chain alpha of the ChsH1-ChsH2-Ltp2 complex) (enzyme)
chain: not shown
For B1, the binding result in data set [1] was “binds”.

B2: ChsH1-ChsH2-Ltp2 protomer (alpha-beta-gamma) (complex)
chain 1: [about 120 residues omitted here]
chain 2: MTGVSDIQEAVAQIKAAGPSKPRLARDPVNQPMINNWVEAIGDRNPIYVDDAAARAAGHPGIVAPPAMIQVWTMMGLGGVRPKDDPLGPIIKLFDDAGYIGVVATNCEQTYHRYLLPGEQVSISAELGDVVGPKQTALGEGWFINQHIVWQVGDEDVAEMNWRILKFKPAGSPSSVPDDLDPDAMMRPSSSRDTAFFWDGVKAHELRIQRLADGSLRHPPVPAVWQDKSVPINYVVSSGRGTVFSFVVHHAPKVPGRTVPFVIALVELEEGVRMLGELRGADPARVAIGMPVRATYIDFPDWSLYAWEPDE
chain 3: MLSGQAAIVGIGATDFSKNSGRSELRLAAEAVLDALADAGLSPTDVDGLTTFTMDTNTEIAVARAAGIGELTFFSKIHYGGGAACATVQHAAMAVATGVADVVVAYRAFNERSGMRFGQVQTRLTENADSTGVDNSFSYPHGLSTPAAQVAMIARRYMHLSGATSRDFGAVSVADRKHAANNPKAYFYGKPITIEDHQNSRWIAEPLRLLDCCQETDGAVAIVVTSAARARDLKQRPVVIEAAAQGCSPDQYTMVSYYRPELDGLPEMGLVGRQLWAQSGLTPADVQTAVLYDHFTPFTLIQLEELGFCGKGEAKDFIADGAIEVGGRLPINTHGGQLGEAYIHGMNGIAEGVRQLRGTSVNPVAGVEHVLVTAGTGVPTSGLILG
Regarding B2, the “stoichiometry N” value in “AUC” was 2.
